Measured values from patent US20250353853A1, “FLAVIVIRUS INHIBITORS” (IRBM S.P.A., priority 2022, published 2025).
Counter-ions that a name gives are not always drawn.

target: DEN2V NS2B-G4SG4-NS3 serine protease (Dengue virus type 2 (DENV-2), UniProt Q91H74); assay: DEN2V Protease Inhibition Assay

Row | Structure (SMILES) | IC50 [nM]
1 | O=C([N-]c1c[n+](Cc2ccccc2)no1)Nc1cccc(C(F)(F)F)c1 [Example 6, (3-Benzyl-1,2,3-oxadiazol-3-ium-5-yl)((3-(trifluoromethyl)phenyl)carbamoyl) amide] | 1000 to 20000
2 | Cc1ccccc1-c1ccc(C[n+]2cc([N-]C(=O)Nc3cccc(C(F)(F)F)c3)on2)cc1 [Example 21, (3-((2′-methyl-[1,1′-biphenyl]-4-yl)methyl)-1,2,3-oxadiazol-3-ium-5-yl)((3-(trifluoromethyl)phenyl)carbamoyl)amide] | 1000 to 20000
3 | O=C([N-]c1c[n+](Cc2ccc(-c3cccnc3)cc2)no1)Nc1cccc(C(F)(F)F)c1 [Example 22, (3-(4-(pyridin-3-yl)benzyl)-1,2,3-oxadiazol-3-ium-5-yl)((3-(trifluoromethyl)phenyl)carbamoyl)amide] | 1000 to 20000
4 | Cn1cc(-c2ccc(C[n+]3cc([N-]C(=O)Nc4cccc(C(F)(F)F)c4)on3)cc2)cn1 [Example 23, (3-(4-(1-methyl-1H-pyrazol-4-yl)benzyl)-1,2,3-oxadiazol-3-ium-5-yl)((3-(trifluoromethyl)phenyl)carbamoyl)amide] | 1000 to 20000
5 | O=C([N-]c1c[n+](Cc2ccc(-c3cncnc3)cc2)no1)Nc1cccc(C(F)(F)F)c1 [Example 26, (3-(4-(Pyrimidin-5-yl)benzyl)-1,2,3-oxadiazol-3-ium-5-yl)((3-(trifluoromethyl)phenyl)carbamoyl)amide] | 1000 to 20000
6 | Cc1nc(OCCN(C)C)ncc1-c1ccc(C[n+]2cc([N-]C(=O)Nc3cccc(C(F)(F)F)c3)on2)nc1 [Example 43, (3-((5-(2-(2-(dimethylamino)ethoxy)-4-methylpyrimidin-5-yl)pyridin-2-yl)methyl)-1,2,3-oxadiazol-3-ium-5-yl)((3-(trifluoromethyl)phenyl)carbamoyl)amide] | 1000 to 20000
7 | O=C([N-]c1c[n+](C(c2ccccc2)C(F)(F)F)no1)Nc1cccc(C(F)(F)F)c1 (stereo not drawn) [Example 44, (3-(2,2,2-trifluoro-1-phenylethyl)-1,2,3-oxadiazol-3-ium-5-yl)((3-(trifluoromethyl)phenyl)carbamoyl)amide] | 1000 to 20000
8 | O=C([N-]c1c[n+](Cc2cccc(Br)c2)no1)Nc1cccc(C(F)(F)F)c1 [Example 46, (3-(3-bromobenzyl)-1,2,3-oxadiazol-3-ium-5-yl)((3-(trifluoromethyl)phenyl)carbamoyl)amide] | 1000 to 20000
9 | O=C([N-]c1c[n+](Cc2ccc(I)cc2)no1)Nc1cccc(C(F)(F)F)c1 [Example 47, (3-(4-iodobenzyl)-1,2,3-oxadiazol-3-ium-5-yl)((3-(trifluoromethyl)phenyl)carbamoyl)amide] | 1000 to 20000
10 | O=C([N-]c1c[n+](Cc2ccc(-c3cnoc3)cc2)no1)Nc1cccc(C(F)(F)F)c1 [Example 48, (3-(4-(isoxazol-4-yl)benzyl)-1,2,3-oxadiazol-3-ium-5-yl)((3-(trifluoromethyl)phenyl)carbamoyl)amide] | 1000 to 20000
11 | O=C([N-]c1c[n+](Cc2cccc(-c3cncnc3)c2)no1)Nc1cccc(C(F)(F)F)c1 [Example 50, (3-(3-(Pyrimidin-5-yl)benzyl)-1,2,3-oxadiazol-3-ium-5-yl)((3-(trifluoromethyl)phenyl)carbamoyl)amide] | 1000 to 20000
12 | Cn1cc(-c2cccc(C[n+]3cc([N-]C(=O)Nc4cccc(C(F)(F)F)c4)on3)c2)cn1 [Example 52, (3-(3-(1-methyl-1H-pyrazol-4-yl)benzyl)-1,2,3-oxadiazol-3-ium-5-yl)((3-(trifluoromethyl)phenyl)carbamoyl)amide] | 1000 to 20000
13 | COc1ncc(-c2cccc(C[n+]3cc([N-]C(=O)Nc4cccc(C(F)(F)F)c4)on3)c2)cn1 [Example 53, (3-(3-(2-methoxypyrimidin-5-yl)benzyl)-1,2,3-oxadiazol-3-ium-5-yl)((3-(trifluoromethyl)phenyl)carbamoyl)amide] | 1000 to 20000
14 | O=C([N-]c1c[n+](Cc2ccc(I)cc2)no1)Nc1cncc(C(F)(F)F)c1 [Example 55, (3-(4-iodobenzyl)-1,2,3-oxadiazol-3-ium-5-yl)((5-(trifluoromethyl)pyridin-3-yl)carbamoyl)amide] | 1000 to 20000
15 | O=C([N-]c1c[n+](Cc2ccc(-c3ccc(CN4CCOCC4)cc3)cc2)no1)Nc1cccc(C(F)(F)F)c1 [Example 56, (3-((4′-(morpholinomethyl)-[1,1′-biphenyl]-4-yl)methyl)-1,2,3-oxadiazol-3-ium-5-yl)((3-(trifluoromethyl)phenyl)carbamoyl)amide] | 1000 to 20000
16 | O=C([N-]c1c[n+]([C@@H]2CCC[C@H]2c2ccccc2)no1)Nc1cccc(C(F)(F)F)c1 [Example 59, (3-((1R,2S)-2-phenylcyclopentyl)-1,2,3-oxadiazol-3-ium-5-yl)((3-(trifluoromethyl)phenyl)carbamoyl)amide] | 1000 to 20000
17 | Cc1ncncc1-c1ccc(C[n+]2cc([N-]C(=O)Nc3cccc(C(F)(F)F)c3)on2)cc1 [Example 60, (3-(4-(4-methylpyrimidin-5-yl)benzyl)-1,2,3-oxadiazol-3-ium-5-yl)((3-(trifluoromethyl)phenyl)carbamoyl)amide] | 1000 to 20000

Row | Structure (SMILES) | IC50 [nM]
18 | COc1ncncc1-c1ccc(C[n+]2cc([N-]C(=O)Nc3cccc(C(F)(F)F)c3)on2)cc1 [Example 62, (3-(4-(4-methoxypyrimidin-5-yl)benzyl)-1,2,3-oxadiazol-3-ium-5-yl)((3-(trifluoromethyl)phenyl)carbamoyl)amide] | 1000 to 20000
19 | O=C([N-]c1c[n+](Cc2ccc(-c3ccnc(O)c3)cc2)no1)Nc1cccc(C(F)(F)F)c1 [Example 64, (3-(4-(2-hydroxypyridin-4-yl)benzyl)-1,2,3-oxadiazol-3-ium-5-yl)((3-(trifluoromethyl)phenyl)carbamoyl)amide] | 1000 to 20000
20 | NC[C@H](Cc1ccc(-c2ccccc2)cc1)[n+]1cc([N-]C(=O)Nc2cccc(C(F)(F)F)c2)on1 [Example 65, (S)-(3-(1-([1,1′-biphenyl]-4-yl)-3-aminopropan-2-yl)-1,2,3-oxadiazol-3-ium-5-yl)((3-(trifluoromethyl)phenyl)carbamoyl)amide formate] | 1000 to 20000
21 | NC[C@@H](Cc1ccc(-c2ccccc2)cc1)[n+]1cc([N-]C(=O)Nc2cccc(C(F)(F)F)c2)on1 [Example 66, (R)-(3-(1-([1,1′-biphenyl]-4-yl)-3-aminopropan-2-yl)-1,2,3-oxadiazol-3-ium-5-yl)((3-(trifluoromethyl)phenyl)carbamoyl)amide] | 1000 to 20000
22 | C[C@H](c1ccc(-c2cncnc2)cc1)[n+]1cc([N-]C(=O)Nc2cccc(C(F)(F)F)c2)on1 [Example 72, (R)-(3-(1-(4-(pyrimidin-5-yl)phenyl)ethyl)-1,2,3-oxadiazol-3-ium-5-yl)((3-(trifluoromethyl)phenyl)carbamoyl)amide] | 1000 to 20000
23 | C[C@@H](c1ccc(-c2cncnc2)cc1)[n+]1cc([N-]C(=O)Nc2cccc(C(F)(F)F)c2)on1 [Example 74, (S)-(3-(1-(4-(pyrimidin-5-yl)phenyl)ethyl)-1,2,3-oxadiazol-3-ium-5-yl)((3-(trifluoromethyl)phenyl)carbamoyl)amide] | 1000 to 20000
24 | C[C@H](c1ccc(-c2cncnc2)cc1)[n+]1cc([N-]C(=O)Nc2cncc(C(F)(F)F)c2)on1 [Example 75, (R)-(3-(1-(4-(pyrimidin-5-yl)phenyl)ethyl)-1,2,3-oxadiazol-3-ium-5-yl)((5-(trifluoromethyl)pyridin-3-yl)carbamoyl)amide] | 1000 to 20000
25 | C[C@@H](c1ccc(-c2cncnc2)cc1)[n+]1cc([N-]C(=O)Nc2cncc(C(F)(F)F)c2)on1 [Example 77, (S)-(3-(1-(4-(pyrimidin-5-yl)phenyl)ethyl)-1,2,3-oxadiazol-3-ium-5-yl)((5-(trifluoromethyl)pyridin-3-yl)carbamoyl)amide] | 1000 to 20000
26 | Cc1noc(C)c1-c1ccc(C[n+]2cc([N-]C(=O)Nc3cccc(C(F)(F)F)c3)on2)cc1 [Example 78, (3-(4-(3,5-dimethylisoxazol-4-yl)benzyl)-1,2,3-oxadiazol-3-ium-5-yl)((3-(trifluoromethyl)phenyl)carbamoyl)amide] | 1000 to 20000
27 | Cc1ncncc1-c1ccc([C@H](C)[n+]2cc([N-]C(=O)Nc3cccc(C(F)(F)F)c3)on2)cc1 [Example 79, (S)-(3-(1-(4-(4-methylpyrimidin-5-yl)phenyl)ethyl)-1,2,3-oxadiazol-3-ium-5-yl)((3-(trifluoromethyl)phenyl)carbamoyl)amide] | 1000 to 20000
28 | Cc1ncnc(C)c1-c1ccc(C[n+]2cc([N-]C(=O)Nc3cccc(C(F)(F)F)c3)on2)cc1 [Example 81, (3-(4-(4,6-dimethylpyrimidin-5-yl)benzyl)-1,2,3-oxadiazol-3-ium-5-yl)((3-(trifluoromethyl)phenyl)carbamoyl)amide] | 100 to 1000
29 | Cc1ncncc1-c1ccc([C@@H](C)[n+]2cc([N-]C(=O)Nc3cccc(C(F)(F)F)c3)on2)cc1 [Example 82, (R)-(3-(1-(4-(4-methylpyrimidin-5-yl)phenyl)ethyl)-1,2,3-oxadiazol-3-ium-5-yl)((3-(trifluoromethyl)phenyl)carbamoyl)amide] | 1000 to 20000
30 | Cc1ncncc1-c1cccc(C[n+]2cc([N-]C(=O)Nc3cccc(C(F)(F)F)c3)on2)c1 [Example 83, (3-(3-(4-methylpyrimidin-5-yl)benzyl)-1,2,3-oxadiazol-3-ium-5-yl)((3-(trifluoromethyl)phenyl)carbamoyl)amide] | 1000 to 20000
31 | COc1ncncc1-c1cccc(C[n+]2cc([N-]C(=O)Nc3cccc(C(F)(F)F)c3)on2)c1 [Example 84, (3-(3-(4-methoxypyrimidin-5-yl)benzyl)-1,2,3-oxadiazol-3-ium-5-yl)((3-(trifluoromethyl)phenyl)carbamoyl)amide] | 1000 to 20000
32 | Cc1ccncc1-c1ccc(C[n+]2cc([N-]C(=O)Nc3cccc(C(F)(F)F)c3)on2)cc1 [Example 85, (3-(4-(4-methylpyridin-3-yl)benzyl)-1,2,3-oxadiazol-3-ium-5-yl)((3-(trifluoromethyl)phenyl)carbamoyl)amide] | 1000 to 20000
33 | Cc1nccnc1-c1ccc(C[n+]2cc([N-]C(=O)Nc3cccc(C(F)(F)F)c3)on2)cc1 [Example 86, (3-(4-(3-methylpyrazin-2-yl)benzyl)-1,2,3-oxadiazol-3-ium-5-yl)((3-(trifluoromethyl)phenyl)carbamoyl)amide] | 1000 to 20000
